Source: PubChem BioAssay AID624099 (ICCB-Longwood, 2012)
Assay: 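Knock-downs relieving repression by E2 of an HPV18 LCR luciferase reporter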 (primary screen). System: human C33A cervical carcinoma cells (HPV-negative) stably expressing BPV1 E2 and an HPV18 LCR luciferase reporter. Knock-down reagent: siRNA pool against human genes, 40 nM. Time to read-out: 72 h. Measured: 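HPV18 LCR reporter light per well, converted to plate-wise z-scores that exclude control wells, and averaged over triplicate plates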. Reading the numbers: mean z-score and z-score: higher = stronger reporter signal, weaker E2 silencing. Call rule: 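Mean z ≥ 2 together with z ≥ 2 in two or more of the three replicates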.
Shown is an unselected part of about 21,000 deposited reagents. 497 of all reagents (2.4%) count as active. 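Higher z means weaker E2 silencing; only reporter increases were scored, and knock-downs that hurt cell survival may mask genuine repressor factors.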

gene symbol | mean z-score | z-score, replicate A | z-score, replicate B | z-score, replicate C | Outcome
BZW2 (GeneID 28969) | 0.39 | 0.11 | 0.57 | 0.48 | inactive
PVT1 (GeneID 5820) | 1.14 | 0.81 | 1.26 | 1.36 | inactive
BDP1 (GeneID 55814) | -0.46 | -0.72 | -0.26 | -0.39 | inactive
DRC5 (GeneID 202500) | -0.31 | -0.33 | -0.36 | -0.23 | inactive
SPHK2 (GeneID 56848) | 0.23 | 0 | 0.03 | 0.66 | inactive
ALDOC (GeneID 230) | -0.15 | -0.24 | -0.1 | -0.1 | inactive
VN1R5 (GeneID 317705) | -0.21 | -0.39 | 0.06 | -0.3 | inactive
TAS2R40 (GeneID 259286) | -0.19 | -0.26 | -0.23 | -0.09 | inactive
LOC149329 (retired record) (GeneID 149329) | 0.26 | -0.08 | 0.64 | 0.22 | inactive
PLEKHH1 (GeneID 57475) | -0.7 | -0.8 | -0.87 | -0.43 | inactive
OR6M1 (GeneID 390261) | 0.29 | 0.47 | -0.02 | 0.42 | inactive
ZNF462 (GeneID 58499) | -0.06 | 0.27 | -0.22 | -0.22 | inactive
TBC1D3B (GeneID 414059) | 2.53 | 2.61 | 2.26 | 2.72 | active
FKBP1A (GeneID 2280) | 0.79 | 1.17 | 0.84 | 0.36 | inactive

Records listed so far whose gene name starts with B or b:
gene symbol | mean z-score | z-score, replicate A | z-score, replicate B | z-score, replicate C | Outcome
BZW2 (GeneID 28969) | 0.39 | 0.11 | 0.57 | 0.48 | inactive
BDP1 (GeneID 55814) | -0.46 | -0.72 | -0.26 | -0.39 | inactive

The listing continues.
gene symbol | mean z-score | z-score, replicate A | z-score, replicate B | z-score, replicate C | Outcome
ARMH1 (GeneID 339541) | -0.8 | -0.25 | -1.09 | -1.07 | inactive
DGKK (GeneID 139189) | 0.73 | 0.94 | 0.62 | 0.62 | inactive
PGAP1 (GeneID 80055) | -0.15 | -0.11 | -0.16 | -0.19 | inactive
DMTF1 (GeneID 9988) | -0.5 | -0.17 | -0.65 | -0.68 | inactive
DNAJC3 (GeneID 5611) | -1.38 | -1.08 | -1.49 | -1.57 | inactive
ATL2 (GeneID 64225) | 1.62 | 1.44 | 1.92 | 1.5 | inactive
PPIAP19 (GeneID 390006) | -1.86 | -2.23 | -1.73 | -1.62 | inactive
TTC9B (GeneID 148014) | 1.46 | 1.73 | 1.36 | 1.29 | inactive
ZDHHC19 (GeneID 131540) | 0.13 | 0.39 | 0.14 | -0.14 | inactive
